Pooled drug test results. Numbers come from NIAID ChemDB, via PubChem.

Common to all: target-level tests; organism: HIV-1; protein: Reverse transcriptase; read by: scintillation proximity; measure: IC50

An empty or dashed field is not shown. ICn is the concentration giving n% inhibition. Lines come from different laboratories, so protocols vary.

smiles | changes | value
COc1ccc(-c2noc(COc3ccc(Cl)c(Oc4cc(Cl)cc(C#N)c4)c3)n2)cc1 | Y181C | 0.17 µM
COc1cc(C#N)cc(C)c1Oc1ccnc(NC2CCN(c3cccc(C(N)=O)c3)CC2)n1 | K103N/Y181C | 0.054 µM
N#Cc1cc(Cl)cc(Oc2cc(OCc3cn(-c4ccccc4)nn3)ccc2Cl)c1 | Y181C | >10 µM
O=C(CSC(=O)N1CCCc2cc(Cl)cc(Cl)c21)Nc1ccc(C(=O)NCc2ccccc2)cc1Cl | WT | 0.002 µM
CCc1c(Cc2ccccc2)nc(SCSC)[nH]c1=O |  | 12 µM
Cc1cc(C#N)cc(Cl)c1Oc1ccnc(NC2CCN(c3cccc(C(N)=O)c3)CC2)n1 | K103N/Y181C | 0.006 µM
N#Cc1cc(Cl)cc(Oc2cc(OCc3nc(-c4ccccn4)no3)ccc2Cl)c1 | Y181C | 0.12 µM
Cc1cc(C#N)cc(C)c1Nc1nc(NC2CCN(c3cccc(C(N)=O)c3)CC2)ncc1Br | K103N/Y181C | 0.016 µM
N#Cc1ccc2[nH]c(C(N)=O)c(S(=O)(=O)N3CCCC3)c2c1 | Y181C | >10 µM
N#Cc1cc(Cl)cc(Oc2cc(OCc3nc(-c4ccccc4)no3)ccc2Cl)c1 | Y181C | 0.24 µM
Cc1cc(C#N)cc(C)c1Nc1ccnc(NC2CCN(c3cccc(C(N)=O)c3)CC2)n1 | K103N/Y181C | 0.018 µM
CC(C)=CCN1Cc2cccc3[nH]c(=S)n(c23)C[C@@H]1C |  | 5 µM
COc1cc(C#N)cc(C)c1Oc1nc(NC2CCN(c3cccc(C(N)=O)c3)CC2)ncc1Br | K103N/Y181C | 0.028 µM
CC(C)Nc1cccnc1N1CCN(C(=O)c2cc3ccc(O)cc3[nH]2)CC1 |  | 1.26 µM
CSCSc1nc(Cc2ccccc2)c(C(C)C)c(=O)[nH]1 |  | 5.6 µM

The last 2 rows once more:

smiles,changes,value
CC(C)Nc1cccnc1N1CCN(C(=O)c2cc3ccc(O)cc3[nH]2)CC1,,1.26 µM
CSCSc1nc(Cc2ccccc2)c(C(C)C)c(=O)[nH]1,,5.6 µM